In this data set the target is T1, E1.40COR30 (ELP-HCV core 30 aa fusion) (synthetic construct) (UniProt P27959).
T1 sequence: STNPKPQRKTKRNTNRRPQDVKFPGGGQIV
The data set is described as follows: binding assay. The settings on record: recruitment into coacervate upon LLPS, 0.1 mM protein, 0.5 uM ssDNA, three media; purified recombinant protein; protein details: ELP (VPGVG)40 fusion; single-stranded DNA.

Where a protein sequence is shown, tags need not be part of it.

For the sequence “TTTTTCCTAGAGAGTAGAGCCTGCTTCG [ssDNA 28 nt]”, the binding result was “binds”.
